Compound potency records, mixed from different reports. Data source: NIAID ChemDB in PubChem.

Shared fields: tests in culture

Inhibition is in % at the dose shown (toxicity tests: loss of growth or viability). ECn: concentration that inhibits the pathogen or its effect by n%. Two numbers with a dash give a range or band. Lines come from different laboratories, so protocols vary. Blank or dashed fields: not listed here.

SMILES	organism	read by	endpoint	cells	strain or isolate	tested at	value
Cc1nc(N)c2ncn([C@@H]3O[C@H](CO)[C@@H](O)[C@H]3O)c2n1	Influenza virus	cytopathic effect	EC50	MDCK	TYPE A0/PR8/34	-	100 µg/mL
CCC(CC)[C@H](NC(C)=O)[C@@H]1[C@H](O)[C@@H](C(=O)O)C[C@H]1N=C(N)N	Influenza A virus	visual reading	EC50	MDCK	Influenza A/Johannesburg/33/94 (H3N2)	-	0.07 µM
O=C(O)CCNS(=O)(=O)c1ccc2c(c1)Cc1ccccc1-2	Influenza B virus	plaque count	inhibition	CEF	B/LEE	31.7 µg/mL	29.6%
Nc1ncc(/C=N/O)c(NCC2(CO)CC(CCc3ccccc3)C2)n1	Influenza B virus	plaque count	EC50	MDCK	B/GIFU/2/73	-	0.25–0.51 µM
Nc1ccn([C@@H]2C=C(CO)[C@@H](O)[C@H]2O)c(=O)n1	Influenza C virus	cytopathic effect	EC50	MDCK	-	-	4.5 µg/mL
CC(O)C1(CNc2cc(Cl)nc(N)n2)CCC1	Influenza B virus	plaque count	EC50	MDCK	B/GIFU/2/73	-	55 µM
C/C=C\[C@@H]1C[C@H](C(=O)O)N[C@H]1[C@@H](NC(C)=O)[C@](C)(CCC)OC	Influenza B virus	plaque count	EC50	MDCK	HONG KONG/5/72	-	0.0141 µM
Nc1nc(Cl)cc(NCC2(CO)CCC(O)C2)n1	Influenza B virus	plaque count	EC50	MDCK	B/GIFU/2/73	-	>110 µM
N=C1c2ncn([C@H]3C[C@H](O)[C@@H](CO)O3)c2NCN1OCc1cccc(F)c1	Influenza virus	cytopathic effect	EC50	MDCK	TYPE A0/PR8/34	-	320 µg/mL
CCC(CC)[C@H](NC(C)=O)[C@@H]1[C@H](O)[C@@H](C(=O)O)C[C@H]1N=C(N)N	Influenza A virus	-	EC50	MDCK	H1N1 A/TEXAS/36/91	-	0.09 µM
Nc1nc(NCC2(CO)CCC2)cc(=O)[nH]1	Influenza B virus	plaque count	EC50	MDCK	B/GIFU/2/73	-	>130 µM
CCC	Influenza A virus	-	EC50	MDCK	USSR/2/85 (H3)	-	>50 µM
CCOC(=O)c1nc2cc(F)c(F)cc2[nH]c1=O	Influenza virus	plaque count	EC50	BSC-1/HELA	Maryland B	-	<10 µg/mL
Nc1cc(Cl)nc(N)n1	Influenza B virus	plaque count	EC50	MDCK	B/GIFU/2/73	-	>690 µM
N=c1c2ncn([C@H]3C[C@H](O)[C@@H](CO)O3)c2ncn1O	Influenza virus	cytopathic effect	EC50	MDCK	TYPE A0/PR8/34	-	10 µg/mL
CC(N)C12CC3CC(CC(C3)C1)C2	Influenza A virus	ELISA	EC50	VERO	H3N2 A/NY/83/R6	-	21.5 µg/mL
Nc1nc(Cl)cc(NCC2(CO)CCC2)n1	Influenza B virus	plaque count	EC50	MDCK	B/GIFU/2/73	-	45–58 µM
CC(=O)N[C@H]1[C@H]([C@H](O)[C@H](O)CO)OC(C(=O)O)=C[C@@H]1N=C(N)N	Influenza A virus	-	EC50	MDCK	Influenza A/Sydney/05/97 (H3N2)	-	0.45 µM

A second listing of 2 rows from above:

SMILES,organism,read by,endpoint,cells,strain or isolate,tested at,value
Nc1ncc(/C=N/O)c(NCC2(CO)CC(CCc3ccccc3)C2)n1,Influenza B virus,plaque count,EC50,MDCK,B/GIFU/2/73,-,0.25–0.51 µM
N=C1c2ncn([C@H]3C[C@H](O)[C@@H](CO)O3)c2NCN1OCc1cccc(F)c1,Influenza virus,cytopathic effect,EC50,MDCK,TYPE A0/PR8/34,-,320 µg/mL